Pooled drug test results. Numbers come from NIAID ChemDB, via PubChem.

Common to all: whole-cell or culture tests; organism: Pneumocystis carinii; read-out: inhibition

Inhibition is in % at the dose shown (toxicity tests: loss of growth or viability).

structure,conditions,dose,cells,result
COCCn1ccc(=O)c(O)c1C,7 d,18 µM,Human fibroblasts,21%
CC(C(O)(Cn1cncn1)c1ccc(F)cc1F)S(C)(=O)=O,10 d,10 µg/mL,WI-38,0%
c1ccc(CNCCCNCCCCCCCNCCCNCc2ccccc2)cc1,-,3 µM,-,38%
Cc1[nH]c2nc(N)[nH]c(=O)c2c1CSc1ccncc1,-,32 µM,-,76%
NC(=NCCO)c1ccc(N2CCCN(c3ccc(C(N)=NCCO)cc3)CC2)cc1,-,1 µM,-,0%
N=C(N)c1ccc(N2CCN(c3ccccc3)CC2)cc1,-,0.1 µg/mL,-,23%
NC(=NCCCO)c1ccc(N2CCCN(c3ccc(C(N)=NCCCO)cc3)CC2)cc1,-,1 µM,-,0%
N=C(N)c1ccc(OC/C=C/COc2ccc(C(=N)N)cc2)cc1,-,0.2 µM,-,81%
CC(C)CN(C[C@@H](O)[C@H](Cc1ccccc1)NC(=O)O[C@H]1CCOC1)S(=O)(=O)c1ccc(N)cc1,-,0.32 µM,-,59.29%
NC(=NCCc1ccccc1)c1ccc(N2CCN(c3ccccc3)CC2)cc1,-,0.1 µg/mL,-,0%
C(=C\COc1ccc(C2=NCCN2)cc1)/COc1ccc(C2=NCCN2)cc1,-,0.2 µM,-,58%
CCc1c(O)c(=O)ccn1CCOC,7 d,18 µM,Human fibroblasts,30%
OC(Cn1cncn1)(Cn1cncn1)c1ccc(F)cc1F,10 d,10 µg/mL,WI-38,20%
NC(=NCCCc1ccccc1)c1ccc(N2CCN(c3ccccc3)CC2)cc1,-,50 µg/mL,-,95%
NC(=NCc1ccccc1)NC(=O)c1nc(Cl)c(N)nc1N,-,100 µM,-,6%
CCCCCCCCCCCCN=C(N)c1ccc(N2CCN(c3ccccc3)CC2)cc1,-,50 µg/mL,-,85%
CC(=O)Nc1ccc(C(=O)O)cc1,-,10 µM,-,48%
N=C(N)c1ccc(OC/C=C\COc2ccc(C(=N)N)cc2)cc1,-,0.2 µM,-,91%
O=C(Cn1ccnc1[N+](=O)[O-])NCCO,10 d,10 µg/mL,WI-38,27%
CCCCCCCN=C(N)c1ccc(N2CCN(c3ccccc3)CC2)cc1,-,10 µg/mL,-,90%
CC(=O)N(O)CCCCCNC(=O)CCC(=O)N(O)CCCCCNC(=O)CCC(=O)N(O)CCCCCN,7 d,7.5 µM,Human fibroblasts,56%
CCCCN=C(N)c1ccc(N2CCN(c3ccccc3)CC2)cc1,-,0.1 µg/mL,-,28%
C=CCSSSCC=C,7 d,1000 µg/mL,-,30%
CCCCCCCCN=C(N)c1ccc(N2CCN(c3ccccc3)CC2)cc1,-,0.1 µg/mL,-,0%
c1cc(N2CCCN(c3ccc(C4=NCCCN4)cc3)CC2)ccc1C1=NCCCN1,-,1 µM,-,68%
NC(=NCCc1ccc(F)cc1)c1ccc(N2CCN(c3ccccc3)CC2)cc1,-,0.1 µg/mL,-,0%
CC(=O)N(O)CCCCCNC(=O)CCC(=O)N(O)CCCCCNC(=O)CCC(=O)N(O)CCCCCN,-,25 µM,-,25%

For reference, 3 entries again:

structure | conditions | dose | cells | result
CC(=O)N(O)CCCCCNC(=O)CCC(=O)N(O)CCCCCNC(=O)CCC(=O)N(O)CCCCCN | - | 25 µM | - | 25%
CCc1c(O)c(=O)ccn1CCOC | 7 d | 18 µM | Human fibroblasts | 30%
CCCCCCCCCCCCN=C(N)c1ccc(N2CCN(c3ccccc3)CC2)cc1 | - | 50 µg/mL | - | 85%

Blank or dashed fields: not listed here. Neighbouring rows are from separate reports.